The subject of the data set is T. brucei Lister 427 bloodstream forms. Nature of the data set: Anti-T. brucei activity, resazurin-based assay on bloodstream forms. It is filed as cell-based, Trypanosoma brucei. The following applies: selectivity index: CC50 THP-1 (72 h) / IC50 T. brucei (72 h). How it is done: T. brucei Lister 427 bloodstream forms were grown in a humidified incubator at 37 °C and 5% CO2 in complete HMI-9 medium supplemented with 10% heat-inactivated fetal bovine serum (FBS) and 100 UI/mL penicillin/streptomycin. Parasite maintenance was performed in T25 ventilated flasks by subpassage at a concentration of 1 × 10^4/mL every 2 days in T25 ventilated flasks. Luciferase-expressing L. infantum (MHOM/MA/67/ITMAP-263) axenic amastigotes expressing episomal luciferase were maintained in MAA20 [31] at 37 °C in a 5% CO2 environment with subculture every 7 days at 1 × 10^6/mL in 5-mL T25 ventilated flasks.
The compounds’ efficacy against bloodstream-stage trypomastigotes was evaluated using a resazurin-based assay. Parasites were added to 100 µL of serial dilutions of compounds in supplemented complete medium at a cell density of 5 × 10^3/mL. As a quality control, a dose–response curve for the antitrypanosomal pentamidine was included in all the assays. The final volume of the assay was 200 µL/well. Each condition was carried out in duplicate. Following 72 h of incubation at the specific conditions for parasites, 20 […] of a 0.5 mM resazurin solution was added, and the plates were incubated for a further 4 h under the same conditions. Fluorescence was measured at 544 nm and 590 nm excitation and emission wavelength, respectively, using a Synergy 2 Multi-Mode Reader (Biotek, Winooski, VT, USA). The results are shown as % of parasite growth inhibition compared to control (untreated parasites) and represent the average of at least three independent experiments. The effect was evaluated by the determination of the IC50 value (concentration required to inhibit growth in 50%) and calculated by non-linear regression curves using GraphPad Prism software, version 8.1.1 for Windows (GraphPad Software, San Diego, CA, USA).

Some results are limits rather than exact numbers.

Consider `C=CCc1cc(Cn2cc(C(=O)Nc3ccc(OC)cc3C(N)=O)nn2)c(O)c(OC)c1` [9b, 1-(5-allyl-2-hydroxy-3-methoxybenzyl)-N-(2-carbamoyl-4-methoxyphenyl)-1H-1,2,3-triazole-4-carboxamide], for which the “SI T. brucei” value was above 6. Regarding `C=CCc1cc(Cn2cc(C(=O)Nc3ccc(F)cc3C(N)=O)nn2)c(O)c(OC)c1` [9c, 1-(5-allyl-2-hydroxy-3-methoxybenzyl)-N-(2-carbamoyl-4-fluorophenyl)-1H-1,2,3-triazole-4-carboxamide], the “SI T. brucei” value was 2. The same measure for `C=CCc1cc(Cn2cc(C(=O)Nc3ccc(Cl)cc3C(N)=O)nn2)c(O)c(OC)c1` [9d, 1-(5-allyl-2-hydroxy-3-methoxybenzyl)-N-(2-carbamoyl-4-chlorophenyl)-1H-1,2,3-triazole-4-carboxamide]: above 6; for `C=CCc1cc(Cn2cc(-c3nc4ccc(OC)cc4c(=O)[nH]3)nn2)c(O)c(OC)c1` [10b, 2-(1-(5-allyl-2-hydroxy-3-methoxybenzyl)-1H-1,2,3-triazol-4-yl)-6-methoxyquinazolin-4(3H)-one]: above 5. Under `C=CCc1cc(Cn2cc(-c3nc4ccc(F)cc4c(=O)[nH]3)nn2)c(O)c(OC)c1` [10c, 2-(1-(5-allyl-2-hydroxy-3-methoxybenzyl)-1H-1,2,3-triazol-4-yl)-6-fluoroquinazolin-4(3H)-one] stands above 9. The same measure for `N=C(N)c1ccc(OCCCCCOc2ccc(C(=N)N)cc2)cc1` [Pentamidine, pentamidine, reference compound]: 6734. On to `C=CCc1cc(Cn2cc(-c3nc4ccccc4c(=O)o3)nn2)c(O)c(OC)c1` [compound 14, 2-(1-(5-allyl-2-hydroxy-3-methoxybenzyl)-1H-1,2,3-triazol-4-yl)-4H-benzo[d][1,3]oxazin-4-one], for which the “SI T. brucei” value is recorded as above 3.
